# Experimental data from US10215752B2, “Nanotube array for optical detection of protein-protein interactions” (MASSACHUSETTS INSTITUTE OF TECHNOLOGY, priority 2010, dated 2019).
# Columns and labels:
# [1] = tested on: antiHis Ab; assay: Protein-protein interaction on SWNT/CHI array, Förster distance calculation; conditions: distance change after analyte protein antiHis Ab, Förster equation
# [2] = tested on: Ni-NTA functionalized SWNT/CHI array; assay: On-chip cell-free expression and immobilization of His-tag capture proteins, nIR fluorescence of SWNT/CHI array; conditions: distance change between Ni2+ ion and SWNT after receptor protein, Förster resonance energy transfer equation
molecule,measurement,setting,value
"LpdA: E. coli protein (ExPASy P0A9P0), cell-free expressed with C-terminal His-tag (protein, UniProt P0A9P0 2-474, looked up, C-terminal His-tag) Dihydrolipoyl dehydrogenase: STEIKTQVVVLGAGPAGYSAAFRCADLGLETVIVERYNTLGGVCLNVGCIPSKALLHVAKVIEEAKALAEHGIVFGEPKTDIDKIRTWKEKVINQLTGGLAGMAKGRKVKVVNGLGKFTGANTLEVEGENGKTVINFDNAIIAAGSRPIQLPFIPHEDPRIWDSTDALELKEVPERLLVMGGGIIGLEMGTVYHALGSQIDVVEMFDQVIPAADKDIVKVFTKRISKKFNLMLETKVTAVEAKEDGIYVTMEGKKAPAEPQRYDAVLVAIGRVPNGKNLDAGKAGVEVDDRGFIRVDKQLRTNVPHIFAIGDIVGQPMLAHKGVHEGHVAAEVIAGKKHYFDPKVIPSIAYTEPEVAWVGLTEKEAKEKGISYETATFPWAASGRAIASDCADGMTKLIFDKESHRVIGGAIVGTNGGELLGEIGLAIEMGCDAEDIALTIHAHPTLHESVGLAAEVFEGSITDLPNPKAKKK",Δd2,[1],−0.03964
same,Δd1,[2],0.1791 nm
